In patent US20120207760A1, “Compositions and Methods for the Therapy and Diagnosis of Influenza” (THERACLONE SCIENCES, published 2012):
Numbering of substitutions follows the chain as printed.

B1: TCN-536 (5095_N01) (antibody, V domains shown)
VH: QVQLQQWGAGLLKPSETLSLTCAVYGGSFSVSGYYWSWIRQPPGRGLEWIGEISHGGSTNYNPSLKSRVTISVDTTKNQFSLRLSSVTAADTAVYYCARGTDPDTEVYCRVGNCAAFDYWGQGSLVTVSS
VL: EIILAQSPGTLSLSPGERATLSCRASQFVSTRSLAWYQQRPGQAPRLLIYGASSRATGIPDRFSGSGSGTDFTLTISRLEPEDFAVYYCQHYGYSPRYAFGQGSKVEIK
B2: TCN-547 (5092_F11) (antibody, V domains shown)
VH: QVQLQESGPGLVKPSQTLSLTCTVSGDSISSVDHYWSWIRQHPVKGLEWIGFMYYSASTYYNPSLKSRVTISTDTSKNQFSLRLSSVTAADTAVYYCARGTCAGDCSLHYYYYGLDVWGQGRTVTVSS
VL: DIQMTQSPSSLSASVGDRVTITCRASQSISSYLNWYQHKPGKAPKVLMYAVSILQSGVPSRFSGSGSGADFTLTISSLQPEDFATYYCQQSYSSPLTFGGGTKVEIK
B3: TCN-548 (5092_P01) (antibody, V domains shown)
VH: QVQLQESGPGLVKPSETLSLTCTVSSGPMSDYYWSWIRQPPGKGLEWIGHVSVSHGGRTKSNPSVMSRVTISVETSKNQFSLKLTSVTAADTAVYYCARLNYYDRSGYHSPDGPSNNWFDPWGQGTLVTVSS
VL: DIVMTQSPDSLAVSLGERATINCKSSQSVLYSSNNKNYLAWYQQKPGQPPKLLIYWASTRESGVPDRISGSGSGADFTLTISSLQAEDVAVYYCQQYFATPRTFGQGTKVEIK
B4: TCN-549 (5092_P04) (antibody, V domains shown)
VH: QVQLVQSGAEVKKPGASVKVSCKASGYTFTGYYMHWVRQAPGQGLEWMGWINPNSGDTNYAQKFQGRVTMTRDTSITTAYMELSSLRSDDTAVYYCARDSPYSSSWSFFDYWGQGPLVTVSS
VL: B3 VL with N37S, Y38H, I68F, A75T, T80I, F98Y, A99F, T100S, R102L, Q106G
B5: TCN-556 (5089_K12) (antibody, V domains shown)
VH: QVQLVQSGAEVKKPGASVKVSCKASGYTFIGYDMHWVRQAPGQGLEWMGWINAKRGGTNYAQKFQGRVTMTRDTSISTAYMELNSLRSDDTAVYYCARGVGSRTTIFGVLNPEFDYWGQGTLVTVSS
VL: QSALTQPPSASGSPGQSVTISCTGSSSDVGGYDYVSWYQQHPGKAPKLLIYEVTKRPSGVPDRFSGSKSGNTASLTVSGLQAEDEADYYCSSYAGNYNHVFGPGTKVTVL
B6: TCN-551 (5243_D01) (antibody, V domains shown)
VH: EVQLVQSGSEVKKPGESLKISCKGSGYSFSNYWIGWVRHMPGKGLEWMGIIYPGDSDTRYSPSFQGQVTMSADKSSSTVYLQWSSLKASDTAIYYCARRGGHSFGYGSGGDTHSEFDSWGQGTLVTVSS
VL: QSVLTQSPSVSAAPGQKVTISCSGSDSNIGDYFVCWYQHLPGKPPQLLIYENNKRPSGIPDRFSGSKSGTSATLGITGIQTGDEADYYCATWDGSLSAWVFGGGTKLTVL
B7: TCN-544 (5082_A19) (antibody, V domains shown)
VH: QVQLQESGPGLVKPSETLSLTCTVSRGSIGHYFWSWIRQPPGKGLEWIGYISYSGSTKYNPSLRSRVTISVDTSKNQFSLNLNSVTATDTALYYCAREDYDILTGAGPGMEVWGQGTTVTVSS
VL: QSMLTQPPSASGTPGQRVTISCSGSSSNIGSNTVNWFKHLPGTAPKLLIYRNDLRPSGVPDRFSGSKSGTSASLAISGLQSEDEADYYCATWDDSLNGFYVFGTGTKVTVL
B8: TCN-554 (5277_M05) (antibody, V domains shown)
VH: QVQLVQSGADLKKPGASVKVSCKASGYTFTDYYIHWVRQAPGQGLEWMGWINPESGDTKYAQKFQGRVTMTRDTSITTAYMELGRLRSDDTAVYYCARDVSTTWSWFAPWGQGTLVTVSS
VL: DIVMTQSPDSLAVSLGERATINCRSSQSIFHNSNNENYLAWYQQKPGQPPKLLIYWASTRESGVPDRFSGSGSGTDFTLTISSLQAEDVAVYFCQQYYNAPLTFGGGTKVEIK
B9: TCN-550 (5096_F06) (antibody, V domains shown)
VH: QVQLQESGPGLVKPSETLSLTCTVSGASINSHYWSWIRQPPGKGLEWIGYVYYSGSTTYNPSLKSRVTLSVDTSKNQFSLNLSSVTAADTAFYYCARHPYDVLTGSGDWFDPWGQGTLVTVSS
VL: SYVLTQAPSVSVAPGQTARITCGGNAIGSKKVHWYQHKAGQAPVLVVYDDTDRPSGIPERFSGSNSWSTATLTINRVEAGDEADYYCQVWDFTIDHVVFGGGTKLTVL
B10: TCN-560 (5084_P10) (antibody, V domains shown)
VH: EVQLVESGGGLVQPGGSLRLSCAASGFIFRNYWMSWVRQAPGKGLEWVANIKQDGREKYYVDSLRGRVNISRDNAENSLYLHMNSLRVEDTAVYFCARARMVVVTGDGFDVWGHGTMVTVSS
VL: DIQMTQSPSSLSASVGDRVTITCRASQNIKRYFNWYQQKPGKAPKLLIYAASNLENGVPSRFSGSGSGTDFTLTISSLQPEDFATYYCQQSFSKSWTFGQGTNVDIK
B11: TCN-558 (5248_H10b) (antibody, V domains shown)
VH: QVQLVQSGSEVKKPGTSVKVSCTASGSVFTNYGISWVRQAPGQGLEWMGGIIPLFGAAKYAQKFQGRVTITADESTKTVYMELSRLTSKDTAIYFCAKAPRVYEYYFDQWGQGTPVTVSS
VL: EIVMTQFPATLSVSPGERVTLSCRASQSVSNNLAWYQQKPGQPPRLLIYDASTRATGVPAKFSGTGSGTEFTLSISSLQSEDFAVYYCQQYHNWPPSYSFGLGTKLEIK
B12: TCN-553 (5261_C18) (antibody, V domains shown)
VH: QVQVVQSGTEVKKPGSSVKVSCQTSGGRFMSYAITWVRQAPGQGLEWMGGIVPVFGTANYAQKFQGRVTITTDDSTRTAYMELSSLRSEDTAVYYCGFRYGSGYGFDSWGQGTLVTVSS
VL: EIVLTQSPGTLSLSPGERATLSCRASQSVSSSYLAWYQKKPGQAPRLLIYGASTRATGIPDRFTGSGSGTDFTLSISRLEPEDFAVYYCQHFGTSVFTFGGGTKVEIK
B13: TCN-543 (5081_G23) (antibody, V domains shown)
VH: QVHLVQSGAEVRKPGDSVKVSCKTSGYTFSTYPVAWVRQVPGQGLEWMGWISTYNGNTNFAQNFQGRVTLTTDTTTNTAYMEVRSLKFDDTAVYYCARVEGSYRDFWNNQNRFDPWGQGTLVTVSS
VL: SYVLTQPPSVSVAPGQTARISCGGSNIGGKSVHWYQQKPGQAPVLVVYDDSGRPSGIPERFSGSNSGDTATLTISRVEAGDEADYFCQVWDNFGGVFGTGTKVTVL
B14: TCN-552 (5249_I23) (antibody, V domains shown)
VH: QVQVVQSGAEVKKPGSSVRVSCQASGGTFMNYAIIWVRRAPGQGLEWMGGIIPVFPTPNYAQMFQGRVTISTDESRSTSFLELTNLRYEDTAVYYCARRIYHGGNSGFDFWGQGTLVTVSS
VL: EIVLTQSPATLSLSPGERATLSCRASQSVGNYLAWYQQKPGQAPRLLIYDSSNRAPGIPARFSGSGSGTDFTLTISSLAPEDFAVYYCQQRSKWPPMYSFGHGTKLEIK
B15: TCN-542 (5079_A16) (antibody, V domains shown)
VH: QVQLQESGPGLVKPSQTLSLTCTVSGGSISSGNYYWNWVRQHPGKGLEWIGYIYYRGSTFYNPSLKSRVTISIDTSKNQFSLRLSSVTAADTAVYYCAKDTRSSLDNYQYGMDVWGQGTTVTVSS
VL: QTVVTQEPSLTVSPGGTVTLTCASSTGAVTSSYFPNWFQQKPGQAPRPLIYSTTIRHSWTPARFSGSLLGGKAALTLSGVQPEDEADYYCLLYSGGDPVAFGGGTKLTVL
B16: TCN-545 (5082_I15) (antibody, V domains shown)
VH: QVQLQQWGAGLLKPSETLSLSCAVFGGSFSDYYWTWIRQPPGKGLEWIGEIKHSGRTNYNPSLESRVTISVDTSKNQFSLKLSSVTAADTAIYYCARGTDPDTEGYCRSGSCSAFDFWGQGTLVTVSS
VL: EIVLTQSPGTLSLSPGERATLSCRASHFVNYRSLAWYQQTPGQVPRLLIYGASTRATGIPDRFSGSGSGTDFTLTISRLEPEDFAVYFCQQYGGSPRYTFGQGTRLEIK
B17: TCN-557 (5081_A04) (antibody, V domains shown)
VH: QVQLVQSGAEVKKPGASVKVSCKASGHTFTGYYIHWVRQAPGQGLEWMGWINPDSGATSSAQNFQGRVTMTGDTSSSTAYMELSRLSFDDTAVYYCARVLFTSPFDFWGEGTLVTVSS
VL: QAVVTQEPSLAVSPGGTVTLTCGSSTGAVTRGHYPYWFQQKPGQAPRALIYDSAGNRHSWTPARFSGSLLGGKAALTLSGAQPEDEAEYYCLLSYSGVWVFGGGTKLTVL
B18: TCN-548 (5092_P01) (antibody, V domains shown)
VH: B3 VH
VL: B3 VL
B19: TCN-542 (5079_A16) (antibody, V domains shown)
VH: B15 VH
VL: B15 VL
B20: TCN-522 (3212_I12) (antibody, V domains shown)
VH: QVQLQQWGAGLLKPSETLSLTCTVSGGSLTDYSWNWIRQPPGKGLEWIGDTLHNGYTNYNPSLRGRVSISIDTSKNQVSLRLTSVTAADTALYYCARGSGGYGGFDYFGKLRTWDFWGQGTLVTVSS
VL: DIQLTQSPSSLSASVGDRVTITCRASQGIRNDLGWYQQKPGNAPKRLIFGASSLQSGVPSRFSGSGSGTEFTLTISSLQPEDFATYYCLQHNSYPYTFGQGTKLEIK

biological target: recombinant soluble homotrimeric HA of A/northern shoveler/California/HKWF115/2007 - H6N1 (Influenza A virus A/northern …); assay: micro-array; captured IgG, V5-tagged trimeric HA

| Binder | Trimeric HA Binding: RLU [RLU] |
| --- | --- |
| B1 | 95 |

biological target: recombinant soluble homotrimeric HA of A/chicken/Vietnam/NCVD-016/08 - H5N1 (Influenza A virus …); assay: micro-array; captured IgG, V5-tagged trimeric HA

| Binder | Trimeric HA Binding: RLU [RLU] |
| --- | --- |
| B1 | 19 |

biological target: hemagglutinin (HA) of influenza A/Wisconsin/67/05 H3N2 (Influenza A virus A/Wisconsin/67/2005 …); assay: ELISA, inactivated whole virions coated; transfection supernatant set 5

| Binder | OD450 [OD450] |
| --- | --- |
| B2 | 0.13 |
| B3 | 3.63 |
| B4 | 0.46 |
| B5 | 0.34 |
| B6 | 0.27 |
| B7 | 3.65 |
| B8 | 3.4 |
| B9 | 3.62 |
| B10 | 0.3 |
| B11 | 0.2 |
| B12 | 0.17 |
| B13 | 2.23 |
| B14 | 0.27 |
| B15 | 0.23 |
| B16 | 3.62 |
| B17 | 3.47 |

biological target: recombinant soluble homotrimeric HA of A/duck/Yangzhou/02/05 (H8N4) (Influenza A virus …); assay: microarray, BCC supernatant IgG, trimeric HA

| Binder | Trimeric HA Binding: RLU [RLU] |
| --- | --- |
| B18 | 184 |
| B19 | 332 |

biological target: recombinant soluble homotrimeric HA of A/California/4/09 (H1N1) (Influenza A virus A/California/4/09 …); assay: microarray, BCC supernatant IgG, trimeric HA

| Binder | Trimeric HA Binding: RLU [RLU] |
| --- | --- |
| B18 | 234 |
| B20 | 5020 |

biological target: recombinant soluble homotrimeric HA of A/Solomon Islands/3/06 (H1N1) (Influenza A virus A/Solomon …); assay: microarray, BCC supernatant IgG, trimeric HA

| Binder | Trimeric HA Binding: RLU [RLU] |
| --- | --- |
| B18 | 283 |
| B20 | 38900 |
